Anti-infective test results gathered from many reports (values: NIAID ChemDB through PubChem).

All rows: tests in culture; agent: Aspergillus clavatus; measure: MIC

Blank or dashed fields: not listed here. Conditions beyond the fields shown may differ between rows.

| structure | strain | method | value |
|---|---|---|---|
| CN(C)c1ccc(/C=C2/SC(=O)N(CC(=O)Nc3nc4ccc(SC#N)cc4s3)C2=O)cc1 | MTCC 1323 | broth dilution / visual reading | 500 µg/mL |
| Brc1cc(Br)c2ncnc(NCCNc3nc(NC4CC4)nc(N4CCC(Cc5ccccc5)CC4)n3)c2c1 | MTCC 1323 | agar | 100 µg/mL |
| N#CSc1ccc2nc(NC(=O)CN3C(=O)S/C(=C/c4cccc(-c5ccco5)c4)C3=O)sc2c1 | MTCC 1323 | broth dilution / visual reading | 250 µg/mL |
| Cc1ccc(C2c3c(nc(=S)[nH]c3N)Oc3c2c(C)nn3-c2ccccc2)cc1 | MTCC 1323 | - | >1000 µg/mL |
| CC(=O)Nc1ccc(NC(=O)CSc2nnc(-c3ccc4ncccc4c3)o2)cc1 | - | agar | 50 µg/mL |
| Cc1ccc(C2C(C#N)=C(N)Oc3c2c(C)nn3-c2ccccc2)cc1 | MTCC 1323 | - | 1000 µg/mL |
| N#CSc1ccc2nc(N)sc2c1 | MTCC 1323 | broth dilution / visual reading | 500 µg/mL |
| CC(=O)Nc1ccc2nc(NC(=O)CSc3nnc(-c4ccc5ncccc5c4)o3)sc2c1 | - | agar | 50 µg/mL |
| CC(=O)N1CCN(c2nc(Cl)nc(NC3CC3)n2)CC1 | MTCC 1323 | agar | 100 µg/mL |
| Cc1nn(-c2ccccc2)c2c1C(c1ccc(F)cc1)c1c(nc(=O)[nH]c1N)O2 | MTCC 1323 | - | 500 µg/mL |
| N#CSc1ccc2nc(NC(=O)CN3C(=O)S/C(=C/c4cccc(Oc5ccccc5)c4)C3=O)sc2c1 | MTCC 1323 | broth dilution / visual reading | 1000 µg/mL |
| O=C(CSc1nnc(-c2ccc3ncccc3c2)o1)Nc1ccc(Br)cc1 | - | agar | 25 µg/mL |
| N#CSc1ccc2nc(NC(=O)CN3C(=O)S/C(=C/c4ccc(O)cc4)C3=O)sc2c1 | MTCC 1323 | broth dilution / visual reading | >1000 µg/mL |
| FC(F)(F)c1cccc(N2CCN(c3nc(Cl)nc(NC4CC4)n3)CC2)c1 | MTCC 1323 | agar | 50 µg/mL |
| O=C(CSc1nnc(-c2ccc3ncccc3c2)o1)Nc1nc2ccc(I)cc2s1 | - | agar | 100 µg/mL |
| CCCCCCN(CCCCCC)c1ccc(/C=C2/SC(=O)NC2=O)cc1 | MTCC 1323 | broth dilution / visual reading | >1000 µg/mL |
| Brc1cc(Br)c2ncnc(NCCNc3nc(NC4CC4)nc(N4CCN(C(c5ccccc5)c5ccccc5)CC4)n3)c2c1 | MTCC 1323 | agar | 12.5 µg/mL |
| Cc1ccc(/C=C2/SC(=O)N(CC(=O)Nc3nc4ccc(SC#N)cc4s3)C2=O)cc1 | MTCC 1323 | broth dilution / visual reading | 500 µg/mL |
| O=C(CSc1nnc(-c2ccc3ncccc3c2)o1)Nc1nc2ccc(Br)cc2s1 | - | agar | 50 µg/mL |
| Cc1nn(-c2ccccc2)c2c1C(c1cccc(Br)c1)c1c(nc(=S)[nH]c1N)O2 | MTCC 1323 | - | 500 µg/mL |
| Clc1ccc(C(c2ccccc2)N2CCN(c3nc(NCCNc4ncnc5c(Br)cc(Br)cc45)nc(NC4CC4)n3)CC2)cc1 | MTCC 1323 | agar | 25 µg/mL |
| O=C(CSc1nnc(-c2ccc3ncccc3c2)o1)Nc1ccc(F)cc1 | - | agar | 50 µg/mL |
| CC(=O)N1CCN(c2nc(NCCNc3ncnc4c(Br)cc(Br)cc34)nc(NC3CC3)n2)CC1 | MTCC 1323 | agar | 50 µg/mL |
| O=C(CSc1nnc(-c2ccc3ncccc3c2)o1)Nc1nc2ccccc2s1 | - | agar | 100 µg/mL |
| Clc1nc(NC2CC2)nc(N2CCN(Cc3ccccc3)CC2)n1 | MTCC 1323 | agar | 100 µg/mL |
| Cc1ccc2nc(NC(=O)CSc3nnc(-c4ccc5ncccc5c4)o3)sc2c1 | - | agar | 100 µg/mL |

A second listing of 3 rows from above:

structure	strain	method	value
CN(C)c1ccc(/C=C2/SC(=O)N(CC(=O)Nc3nc4ccc(SC#N)cc4s3)C2=O)cc1	MTCC 1323	broth dilution / visual reading	500 µg/mL
Cc1nn(-c2ccccc2)c2c1C(c1ccc(F)cc1)c1c(nc(=O)[nH]c1N)O2	MTCC 1323	-	500 µg/mL
Brc1cc(Br)c2ncnc(NCCNc3nc(NC4CC4)nc(N4CCN(C(c5ccccc5)c5ccccc5)CC4)n3)c2c1	MTCC 1323	agar	12.5 µg/mL